Data as given in EP4687750B1, “ORAL CARE KIT COMPRISING A LIGHT EMITTING DEVICE AND AN ORAL COMPOSITION” (dated 2026).

Legend:
6-species biofilm = experiment: aPDT on in vitro 6-species supragingival biofilm model, total CFU count
C. albicans = experiment: aPDT on in vitro 6-species supragingival biofilm model, C. albicans; conditions: second pilot trial (Fig. 7); chlorhexidine: 2 min application of 0.02% CHXglu; aPDT: 1 mg/ml Curcumin + 4 LEDs 10 seconds light
[1] = test system: Streptococcus mutans (S. mutans); conditions: curcumin activated with a blue LED for several seconds; isolates from plaque of patients with dental caries; cited from earlier work
[2] = summary of pilot trials, Cur-PVP and methylene blue as aPDT (light activated), chlorhexidine alone

Compound	effectiveness in reducing total CFU (6-species biofilm; [2])	selectivity in targeting specific bacteria strains (6-species biofilm; [2])	total CFU (log) (6-species biofilm; third pilot trial (Fig. 8), 2 min application of 0.02% CHXglu at 16h, 24h, 40h)	total CFU (log) (6-species biofilm; third pilot trial (Fig. 8), 2 min application of 0.02% CHXglu at 16h and 40h)	impact on C. albicans (C. albicans)	total CFU (log) (6-species biofilm; fourth pilot trial (Fig. 9), 5 min incubation with 0.1 mg/ml Methylene blue + 1 LED 5W (660nm) for 10 seconds)	total CFU (log) (6-species biofilm; fourth pilot trial (Fig. 9), 5 min incubation with 1 mg/ml Methylene blue, without light activation)	effect of the photosensitizer alone on the number of bacteria (6-species biofilm; no light activation)	photo-inactivation of planktonic suspensions of S. mutans [1]
[H]/N=C(\N/C(=N/[H])NCCCCCCNC(=N)NC(=N)Nc1ccc(Cl)cc1)Nc1ccc(Cl)cc1	more effective in reducing total CFU	less selective in targeting specific bacteria strains	around 10^4 CFU	around 10^4 CFU	strong impact				
CN(C)c1ccc2nc3ccc(=[N+](C)C)cc-3sc2c1		less selective in targeting specific bacteria strains				10^6-10^7 CFU	10^6-10^7 CFU	strong effect	
COc1cc(/C=C/C(=O)CC(=O)/C=C/c2ccc(O)c(OC)c2)ccc1O									able to photo-inactivate
